Anti-infective test results gathered from many reports (values: NIAID ChemDB through PubChem).

All rows: growth or infection tests; agent: Hepatitis C virus; read by: replicon; endpoint: EC50

ECn: concentration that inhibits the pathogen or its effect by n%.

compound	cell line	strain	value
CCCS(=O)(=O)NC(=O)c1c(-c2ccc[nH]c2=O)c2c3occc3c(F)cc2n1Cc1cc2ccccc2nc1Cl	-	-	<0.5 µM
O=C(Cc1c(F)cccc1C(F)(F)F)N/N=C/c1ccccc1OS(=O)(=O)c1ccc(C(F)(F)F)cc1	Huh7	-	<5 µM
CN(C)CCNC(=O)C1Cc2ccccc2-c2c(C3CCCCC3)c3ccc(C(=O)NS(=O)(=O)N(C)C)cc3n2C1	Huh7	-	0.01–1 µM
CC1CCC(C(=O)N(c2cc(-c3ccc(NC(=O)c4ccncn4)cc3)sc2C(=O)O)C(C)C)CC1	-	1b	<0.5 µM
COc1cccc(CC(=O)N/N=C/c2ccccc2OS(=O)(=O)c2ccc(OCc3cnc(Cl)s3)cc2)c1	Huh7	-	>50 µM
NS(=O)(=O)c1ccc(CNc2nc(NC3CC3)c3nc(-c4ccc(F)c(NS(=O)(=O)C5CC5)c4)ccc3n2)cc1	-	-	<0.1 µM
CNC(=O)c1c(-c2ccc(F)cc2)oc2cc(-c3cn[nH]c3)c(OC(C)C)cc12	Huh7	-	<10 µM
CCOc1nc(NCc2ccc(S(N)(=O)=O)cc2)nc2ccc(-c3ccc(NC(=O)NCCN4CCCC4)cc3)nc12	-	-	<0.1 µM
NC(=O)COc1ccc2c(c1)S(=O)(=O)N=C(c1c(O)c3cc(F)ccc3n(CCC3CC3)c1=O)N2	-	1a 36941	0.18 µM
CNC(=O)c1c(-c2ccc(F)cc2)oc2cc(-c3cc(C)n(C)n3)c(OC(C)C)cc12	Huh7	-	<10 µM
N#Cc1ccc(S(=O)(=O)Oc2ccccc2/C=N/NC(=O)Cc2ccccc2)cc1	Huh7	-	5–50 µM
Cc1oncc1C(=O)Nc1ccc(-c2cc(N(C(=O)C3CCC(C)CC3)C(C)C)c(C(=O)O)s2)cc1	-	1a	>0.5 µM
O=C(NS(=O)(=O)C1CC1)c1c(-c2ccc[nH]c2=O)c2c3ccccc3c(F)cc2n1Cc1ccccc1F	-	-	<1 µM
COc1ccc(CC(=O)N/N=C/c2ccccc2OS(=O)(=O)c2ccc(C)cc2)cc1OC	Huh7	-	<5 µM
CC(=O)N1CCn2c(c(C3CCCCC3)c3ccc(C(=O)NS(=O)(=O)N(C)C)cc32)-c2ccccc21	Huh7	-	0.01–1 µM
CNC(=O)c1c(-c2ccc(F)cc2)oc2cc(N(C)S(C)(=O)=O)c(OCc3ccc(F)cc3F)cc12	Huh7	-	<1 µM
O=C(NS(=O)(=O)c1ccccc1)c1ccc2c(C3CCCCC3)c3n(c2c1)CC(C(=O)N1CCOCC1)Cc1ccccc1-3	Huh7	-	0.01–1 µM
CNC(=O)c1c(-c2ccc(F)cc2)oc2cc(N3CCOCC3)c(OCc3noc(C(C)(C)C)n3)cc12	Huh7	-	<1 µM
COc1cccc(CC(=O)N/N=C/c2ccccc2OS(=O)(=O)c2ccc(OC)c(OC)c2)c1	Huh7	-	<5 µM
NS(=O)(=O)CCNc1nc(NCC(F)(F)F)c2nc(-c3ccc(F)cc3)ccc2n1	-	-	<0.1 µM
CNC(=O)c1c(-c2ccc(F)cc2)oc2cc(C3CCCN3)c(OC(C)C)cc12	Huh7	-	>30 µM
O=C(CCCCc1ccccc1)N/N=C/c1ccccc1OS(=O)(=O)c1ccc(C(F)(F)F)cc1	Huh7	-	5–50 µM
Cc1cnc(C(=O)Nc2ccc(-c3cc(N(C(=O)C4CCC(C)CC4)C(C)C)c(C(=O)O)s3)cc2)cn1	-	1b	<0.5 µM
Cc1ccccc1Cn1c(C(=O)NS(C)(=O)=O)c(-c2ccc[nH]c2=O)c2c3ncsc3ccc21	-	-	<0.5 µM
CCOc1nc(NCc2ccc(F)cc2)nc2ccc(-c3cccc(N(CCO)S(C)(=O)=O)c3)nc12	-	-	<0.1 µM
CNC(=O)c1c(-c2ccc(F)cc2)oc2cc(N3CCOCC3)c(OCc3ccccc3)cc12	Huh7	-	<1 µM
O=C(Cc1ccccc1)N/N=C/c1ccccc1OS(=O)(=O)c1ccc(C(F)(F)F)cc1	Huh7	-	<5 µM
NS(=O)(=O)c1ccc(CNc2nc(NCC(F)(F)F)c3nc(-c4ccnc(C(F)(F)F)c4)ccc3n2)cc1	-	-	<0.1 µM
COC(=O)c1ccc2c(C3CCCCC3)c3n(c2c1)CC(C(=O)N1CCN(c2ccncc2)CC1)=Cc1ccccc1-3	Huh7	-	1–10 µM
O=C(Cc1ccccc1)N/N=C/c1ccccc1OS(=O)(=O)c1cccs1	Huh7	-	>50 µM
Cc1ccc(Cn2c(C(=O)NS(=O)(=O)C3CC3)c(-c3ccc[nH]c3=O)c3c4occc4ccc32)c(C)c1	-	-	<0.5 µM
COC(=O)C1=Cc2ccncc2-c2c(C3CCCCC3)c3ccc(C(=O)OC)cc3n2C1	Huh7	-	1–10 µM
CS(=O)(=O)NC(=O)c1c(-c2ccc[nH]c2=O)c2c3ccccc3ccc2n1Cc1ccnc(N)c1	-	-	>10 µM
O=C(O)c1ccc2c(C3CCCCC3)c3n(c2c1)CC(C(=O)N1CCOCC1)Cc1ccncc1-3	Huh7	-	0.01–1 µM
CCn1cncc1C(=O)Nc1ccc(-c2cc(N(C(=O)C3CCC(C)CC3)C(C)C)c(C(=O)O)s2)cc1	-	1a	>0.5 µM
O=C(NS(=O)(=O)C1CC1)c1c(-c2ccc[nH]c2=O)c2c3occc3c(F)cc2n1Cc1ccc2nc(C(F)(F)F)[nH]c2c1	-	-	<0.5 µM
CC(C)(C)OC(=O)N1CCN(S(=O)(=O)c2cc(-c3ccc4nc(NCc5ccc(S(N)(=O)=O)cc5)nc(NCC(F)(F)F)c4n3)ccc2F)CC1	-	-	<0.1 µM
Cc1ncccc1C(=O)Nc1ccc(-c2cc(N(C(=O)C3CCC(C)CC3)C(C)C)c(C(=O)O)s2)cc1	-	1a	>0.5 µM
Cc1cccc(Cn2c(C(=O)NS(C)(=O)=O)c(-c3ccc[nH]c3=O)c3c4occc4c(F)cc32)c1F	-	-	<0.5 µM
CN(CCS(C)(=O)=O)c1nc(NCc2ccc(F)cc2)nc2ccc(-c3ccc(F)cc3)nc12	-	-	<0.1 µM
COC(=O)c1ccc(F)c(Cn2c(C(=O)NS(=O)(=O)C3CC3)c(-c3ccc[nH]c3=O)c3c4occc4ccc32)c1	-	-	<0.5 µM
COCCN(C(=O)C1CCC(C)CC1)c1cc(-c2ccc(NC(=O)c3cscn3)cc2)sc1C(=O)O	-	1b	<0.5 µM
CNC(=O)c1c(-c2ccc(F)cc2)oc2ccc(OCc3ccc(C(=O)O)cc3)cc12	Huh7	-	<30 µM
CC(C)C(=O)Nc1ccc(-c2ccc3nc(N)nc(OCCF)c3n2)cc1	Huh7	-	0.3–1 µM
COC(=O)c1ccc2c(C3CCCCC3)c3n(c2c1)CC(C(=O)N1CCOCC1)=Cc1ccncc1-3	Huh7	-	1–10 µM
Cc1ccc(C(=O)Nc2ccc(-c3cc(N(C(=O)C4CCC(C)CC4)C(C)C)c(C(=O)O)s3)cc2)cn1	-	1a	>0.5 µM
NS(=O)(=O)c1ccc(CNc2nc(NCC(F)(F)F)c3nc(-c4ccc(C(=O)NC5CC5)cc4)ccc3n2)cc1	-	-	<0.1 µM
CC1CCC(C(=O)N(c2cc(-c3ccc(NC(=O)c4cccnn4)cc3)sc2C(=O)O)C(C)C)CC1	-	1a	<0.5 µM
COc1cccc(CC(=O)N/N=C/c2cccc(C)c2OS(=O)(=O)c2ccc(C)cc2)c1	Huh7	-	<5 µM
CS(=O)(=O)NC(=O)c1c(-c2ccc[nH]c2=O)c2c3occc3c(F)cc2n1Cc1cc(C(=O)NC2CC2)ccc1F	-	-	0.5–1.5 µM
CC1CCC(C(=O)N(c2cc(-c3ccc(NC(=O)c4cscn4)cc3)sc2C(=O)[O-])C(C)C)CC1.C[NH2+]C[C@H](O)[C@@H](O)[C@H](O)[C@H](O)CO	-	1b	<0.5 µM

The last 6 rows once more:

compound	cell line	strain	value
Cc1ccc(C(=O)Nc2ccc(-c3cc(N(C(=O)C4CCC(C)CC4)C(C)C)c(C(=O)O)s3)cc2)cn1	-	1a	>0.5 µM
NS(=O)(=O)c1ccc(CNc2nc(NCC(F)(F)F)c3nc(-c4ccc(C(=O)NC5CC5)cc4)ccc3n2)cc1	-	-	<0.1 µM
CC1CCC(C(=O)N(c2cc(-c3ccc(NC(=O)c4cccnn4)cc3)sc2C(=O)O)C(C)C)CC1	-	1a	<0.5 µM
COc1cccc(CC(=O)N/N=C/c2cccc(C)c2OS(=O)(=O)c2ccc(C)cc2)c1	Huh7	-	<5 µM
CS(=O)(=O)NC(=O)c1c(-c2ccc[nH]c2=O)c2c3occc3c(F)cc2n1Cc1cc(C(=O)NC2CC2)ccc1F	-	-	0.5–1.5 µM
CC1CCC(C(=O)N(c2cc(-c3ccc(NC(=O)c4cscn4)cc3)sc2C(=O)[O-])C(C)C)CC1.C[NH2+]C[C@H](O)[C@@H](O)[C@H](O)[C@H](O)CO	-	1b	<0.5 µM

Rows are shuffled and stem from different studies. An empty or dashed field is not shown. a–b is a range or a potency band.